The text below walks through data of article PMC8050853.

Data set [1] deals with PorX-c-His6 (UniProt B2RJJ3). As to the kind of experiment: DNase I footprinting. The following applies: ~25 pmol DNA, 0/70/140/280 pmol protein in 100 ul, Sites I and II protected; recombinant protein; residues 1-518; protein details: C-terminal His6; label: 32P (5' end of primer 4025); probe letters rebuilt from the primers and the ….
Data set [2] deals with PorX-c-His6 (UniProt B2RJJ3). The data set can be described thus: EMSA. The following applies: 0.5 pmol DNA, 0/50/100 pmol protein in 20 ul, poly(dI:dC), 7.5 mM MgCl2; EMSA: 20 mM HEPES-KOH pH 7.9, 0.1 M KCl, 7.5 mM MgCl2, 0.2 mM EDTA, 20% glycerol, 1 mM DTT, 0.5 mM PMSF, poly(dI:dC) 0.02 ug/ul, BSA 1.25 ug/ul, room temperature, 30 min; recombinant protein; residues 1-518; protein details: C-terminal His6; label: 32P (5' end of primer 4025); probe letters rebuilt from the primers and the ….

For “CACACGTTCTATATTGCGACGAAAGCGCAGTCGATCGTTCTGAATAGTGACATCGCGCATCTCCATGACGAATCTATTGAGAAGAGAATGCTCGGCACCTAAGTGTATTACTTCCATAATTATTGTTGTGAGGTAGGTTATGCAAATCTACGAACGAGATGTTCTAAATACCGATTCGCGCAAAAATACAATATCTTTGCTGCATAAGGCGTTGATCTTACACACCAAATAAAGAATTGAAGATTATTCTCTCAGATGCAATTCTTATATAATTCACGTTTTTCGTTGAGAGTCGCTCTCT (double strand) [porT promoter fragment]”, the binding result in the data set with PorX-c-His6 [1] and with PorX-c-His6 [2] was “binds” throughout.
